# Where a chain is given by its changes, count along the chain named.
# B1: mAb15166 (antibody, V domains shown)
# VH: EVQLVESGGGLVQPGGSLRLSCAASGFTVTSNYMSWVRQAPGKGLEWVSAIYSGESTYYADSVKGRFTISRDSSKNTLYLQMNSLRVEDTAVYYCASIHDYSNYVGGFDPWGQGTLVTVSS
# VL: QSALTQPASVSGSPGQSITISCTGPSSDFGSYNLVSWYQQHPGKAPKLMIYEGTKRPSGVSNRFSGSKSGNTASLTISGLQAEDEADYYCSSYAGSSTWVFGGGTKLTVLG
# B2: mAb15165 (antibody, V domains shown)
# VH: EVQLVESGGGLVQPGGSLRLSCAASGFTVSSNYMSWVRQAPGKGLEWVSAIYSGDSTYYADSVKGRFTISKDNSKNTLYLQMNSLRGEDTAVYYCARLGGALQAYDGAFDYWGQGTLATVSS
# VL: B1 VL with P25T, T54N, N62I
# B3: mAb15164 (antibody, V domains shown)
# VH: EVQLVESGGGLVQPGGSLRLSCAASGFAVSSNYMTWVRQAPGKGLEWVATIYSGDSTYYADSVKGRFTISRHNSKNTLSLQMNSLRADDTAIYYCARLSGVLSGTYNGAFDIWGQGTMVTVSS
# VL: B1 VL with P25T, S31N, L34I, K44Q, L48V, T54N, N71H
# B4: mAb15151 (antibody, V domains shown)
# VH: QVQLVESGGGVVQPGRSLRLSCAASGFVFNSYGMHWVRQAPGKGLEWVAVLWYEGSKNYYADSVKGRFTISRDNSKNTLYLQMNSLRAEDTAVYYCARHGSGSFFGYYLDYWGQGTLVTVSS
# VL: DIQMTQSPSSLSASVGDRVTITCRASHNINDFLNWYQQKPGKAPRLLIYAASSLQSGVPSRFSGSGSGTDFTLTISSLQPEDFATYYCQESYTTPPTFGQGTKLEIKR
# B5: mAb15170 (antibody, V domains shown)
# VH: EVQLVESGGGLVQPGGSLRLSCAATGITVSSNYMSWVRQAPGKGLEWVSLIYSGGSTFYADSVKGRFTISRHNSKNTLYLQMSSLRAEDTAVYYCARDLVDFGMDVWGQGTTVTVSS
# VL: DIQLTQSPSSLSASVGDRVTITCRASQGISNYLAWYQQKPGKAPKLLIYAASTLQSGVPSRFSGSGSGTDFTLTISSLQPEDFGTYYCQQLNSDSPTFGQGTKVEIKR
# B6: mAb14290 (antibody, V domains shown)
# VH: QVQLVQSGAEVKKPGSSVKVSCKASGGSFSNYAISWVRQAPGQGLEWMGGIIPFFGTTNYAQKFQGRLTITADESTSTFYMELSSLGSEDTAVYYCAAGYSSGWYPSWFDPWGQGTLVTVSS
# VL: EIVLTQSPGTLSLSPGERATLSCRASQSVNNNYLAWYQQKPGQTPRLLIYGASSRATGIPDRFSGSGSGTDFTLTITRLEPEDFAVYHCQQYGRSPTTFGQGTRLEIKR
# B7: mAb14288 (antibody, V domains shown)
# VH: EVQLVESGGGLVQPGGSLRLSCAASGFTLSSYDMHWVRQVIGKGLEWVSTIGTSGDTYYPGSVKGRFTISRENAKNSLYLQMNSLRAGDTAVYYCARGGVPTTIWSGPYYYYMDVWGKGTTVTVSS
# VL: QSVLTQPPSVSAAPGQKVTISCSGSSSNIGNNYVSWYQQLPGTAPKLLIYENNKRPSGIPDRFSGSKSGTSATLGITGLQTGDEADYYCGTWDSSLSAGQGVFGGGTKLTVLG
# B8: mAb14291 (antibody, V domains shown)
# VH: EVQLVQSGAEVKKPGSTMKISCKISGYIFSDYYMHWVQQAPGKGLEWMGLVDPEDGETRYAEKFQGRVTITADTSTDTAYMELSSLRFEDTAVYYCATVGGSSGPWGETLFDHWGQGSLVTVSS
# VL: DIVMTQSPLSLPVTPGEPASISCRSSQSLLHSNGYNYINWYLQKPGQSPQLLMYLGSNRASGVPDRFSGSGSGTDSTLKISRVEAEDAGVYYCMQTRQTPYTFGQGTKLEIKR
# B9: mAb14255 (antibody, V domains shown)
# VH: QVQLQESGPGLVKPSETLSLTCTVSGGSISGYYWSWIRQPPGKGLDWIGYIYYRGNTNYNPSLKSRVTISVDTSNNQFSLKLSSVTAADTAVYYCARYGEGYGDASGYHFDYWGQGTLVTVSS
# VL: B1 VL with P25T, F29V, G53D, T54S, S61A, R63P
# B10: mAb14287 (antibody, V domains shown)
# VH: QVQLVQSGAEVKKPGSSVKVSCKASGGTFSNNAISWVRQAPGQGLEWMGKIIPILGIGGDAQKFQGRFTITADKSTSTAYMELSSLRSEDTAVYYCANSGDSRPHAFDIWGQGTMVTVSS
# VL: B1 VL with P25T, F29V, G53V, T54S, S97R, T98R, W99E
# B11: mAb14256 (antibody, V domains shown)
# VH: QVQLQESGPGLVKPSETLSLTCTVSGGSISSHYWSWIRQPPGKGLEWIGYIYYSGSSNYNPSLKSRVTISVDTSKNQFSLKLNSVTAADTAVYYCARHYDILTGFDWFDPWGQGTLVTVSS
# VL: QSVLTQPPSVSGAPGQRVTISCTGSSSNIGTHYDVHWYQQLPGTAPKLLIYGNSNRPSGVPDRFSGSKSGTSASLAITGLQAEDEADYYCQSFDNSLTAPYVFGTGTKVTVLG
# B12: mAb14234 (antibody, V domains shown)
# VH: QVQLVESGGGVVQPGRSLRLSCAASGFTFSSYGIHWVRQAPGKGLEWVAIIWYDGSEKYYADSVKGRFTISRDNSKNTLFLQMNSLEAEDTAVYYCARGPDLLTGYYNYFYYGMDVWGQGTTVTVSS
# VL: QSVLTQPPSVSGAPGQRVTISCTGSSSNIGIGYDVHWYQQLPGTVPKLLIYGNTNRPSGVPDRFSGSKSGTSASLAITGLQAEDEADYYCQSYDSSLSSYVFGTGTKVTVLG
# B13: mAb14249 (antibody, V domains shown)
# VH: QVQLVQSGAEVKKPGASVKVSCKASGYTFTGYYMHWVRQAPGQGLEWMGRINPYSGGTNYAQKFQGRVTMTRDTSISTAYMELSRLRSDDTAVYYCASGFEPHDYGDPNLPPWGQGTLVTVSS
# VL: not shown
# B14: mAb15163 (antibody, V domains shown)
# VH: EVQLVETGGGLIQPGESLRLSCAASGFIVSTNYMNWVRQAPGKGLEWVSVIYRGGSTYYADSVKGRFTISRDNSKNTLFLQMNSLRAEDTAVYYCARGHEDFDYDTPASGAFDIWGQGTMVTVSS
# VL: QSALTQPPSASGSPGQSVTISCTGTSSDVGGHNYVSWYQQHPGKAPKVMIYEVSKRPSGVPDRFSGSKSGNTASLTVSGLQAEDEADYYCSSYAGSNKFVFGTGTKVTVLG
# B15: mAb15165 (antibody, V domains shown)
# VH: B2 VH
# VL: B1 VL with P25T, T54N, N62I
# B16: mAb15166 (antibody, V domains shown)
# VH: B1 VH
# VL: B1 VL
# B17: mAb15164 (antibody, V domains shown)
# VH: B3 VH
# VL: B1 VL with P25T, S31N, L34I, K44Q, L48V, T54N, N71H
# B18: mAb15150 (antibody, V domains shown)
# VH: EVQLVETGGGLIQPGGSLRLSCAAPGFIVSSNYMSWVRQAPGKGLEWVSLLYPGGSTYYADSVKGRFTISRDNSKNTLYLQMNSLRADDTAVYYCARVLPIVEDHFDYWGQGTLVTVSS
# VL: DIQLTQSPSFLSASVGDRVTITCRASQGMSSYLAWYQKKPGKAPKLLIYGATILQSGVPSRFSGSGSGTEFTLTISSLQPEDFATYYCQQLNSDPLYMYTFGQGTKLEIKR
# B19: mAb15156 (antibody, V domains shown)
# VH: QLQLQESGPGLVKSSETLSLTCTVSASITGSTYYWGWIRQPPGKGLEWIGSIYYSGTTYYKASLKSRVTISVDTSKNQFSLKLTSVTVADTAVYYCVSHLLGNYHKYGMDVWGQGTTVTVSS
# VL: QSVLTQPPSASGTPGQRVTISCSGSRSNIGINTVNWYQQFPGTALNLLIFSDNQRPSGVPDRFSGSKSGTSASLAISGLQSEDEADYYCAAWDDSLNGPDWVFGGGTKLTVLG
# Molecular target: T1, SARS-COV-2 RBD extracellular domain expressed with a C-terminal mouse IgG2a Fc (SARS-CoV-2)
# Assay: Biacore SPR, mAb captured on anti-hFc, 25 C
row,Binder,RBD mFc dimer bound at 50 nM
1,B1,334 RU
2,B2,223 RU
3,B3,309 RU
4,B4,492 RU
5,B5,238 RU

# Molecular target: full-length SARS-CoV-2 spike protein (Wuhan-Hu-1) on Jurkat/hCD20 cells (SARS-CoV-2, UniProt P0DTC2 14-1273)
# Assay: cell-based or functional assay
Binder,"Max % ADCP, macrophages, Jurkat/hCD20/SARS-CoV-2 spike cells","EC50 [M] of ADCP, macrophages, Jurkat/hCD20/SARS-CoV-2 spike cells"
B6,16.7%,–
B7,25.9%,6.14e-10 M
B8,32.9%,4.12e-10 M
B9,21.2%,1.73e-11 M
B10,33.2%,–
B11,19.5%,–
B12,32.8%,7.27e-11 M
B13,32.6%,1.69e-10 M

# Molecular target: T1, SARS-COV-2 RBD extracellular domain …
# Assay: Biacore SPR, mAb captured on anti-hFc, 37 C
row,Binder,RBD mFc dimer bound at 50 nM
1,B1,351 RU
2,B2,191 RU
3,B3,466 RU
4,B4,654 RU
5,B5,374 RU

# Molecular target: SARS-COV-2 RBD-MMH (SARS-COV-2 RBD extracellular domain with C-terminal myc-myc-hexahistidine tag) (SARS-CoV-2)
# Assay: SPR 37C, mAb captured, 90 nM RBD-MMH, dissociation pH 6.0
row,Binder,RBD.mmh Bound at pH 7.4 (RU)
1,B14,82.4 RU
2,B15,115 RU
3,B16,66 RU
4,B17,154 RU
5,B18,89.7 RU
6,B19,96.4 RU

# Source: US20260069689A1, “ANTI-SARS-COV-2-SPIKE GLYCOPROTEIN ANTIBODIES AND ANTIGEN-BINDING FRAGMENTS” (Regeneron, published 2026)
